Pooled drug test results. Numbers come from NIAID ChemDB, via PubChem.

Common to all: growth or infection tests; organism: Mycobacterium kansasii

Conditions beyond the fields shown may differ between rows. A number after MIC or MFC names an inhibition level or a share of isolates. An empty or dashed field is not shown.

SMILES	strain or isolate	read by	setting	measure	result
O=C(Nc1cccc(C(F)(F)F)c1)c1cc(Cl)ccc1OS(=O)(=O)c1ccccc1	235/80	-	21 d	MIC	8 µM
COc1ccc2oc(=S)n(-c3ccc(C)cc3)c(=S)c2c1	6509/96	-	14 d	MIC	8 µM
COC(=O)c1cnccn1	235/80	-	7 d	MIC	>500 µM
O=C(Nc1ccc(C(F)(F)F)cc1)c1cc(Cl)ccc1OS(=O)(=O)c1ccccc1	6509/96	-	14 d	MIC	125 µM
O=C(Oc1cc(Cl)ccc1C(=O)Nc1ccc(F)cc1)c1cnccn1	6509/96	-	14 d	MIC	4 µM
O=C(Nc1cccc(Br)c1)c1ccc(Cl)cc1OS(=O)(=O)c1ccccc1	235/80	-	7 d	MIC	16 µM
S=c1oc2ccc(Br)cc2c(=S)n1-c1ccc(Cl)cc1	My 235/80	-	14 d	MIC	4 µM
Fc1cc(Br)ccc1Nc1nnc(-c2ccncc2)o1	My 6509/96	broth dilution	14 d	MIC100	>125 µM
O=c1oc2ccc(F)cc2c(=S)n1-c1ccc(Cl)cc1	My 235/80	-	14 d	MIC	2 µM
O=C(Nc1cccc(C(F)(F)F)c1)c1ccc(Cl)cc1OS(=O)(=O)c1ccccc1	235/80	-	21 d	MIC	125 µM
Nc1ccc(C(=O)O)c(O)c1	6509/96	-	7 d	MIC	32 µM
O=C(NNC(=O)c1ccncc1)Nc1ccc(F)cc1Br	My 6509/96	broth dilution	21 d	MIC100	>125 µM
O=C(Nc1ccc(Br)cc1)c1cc(Cl)ccc1OS(=O)(=O)c1ccccc1	235/80	-	21 d	MIC	8 µM
O=c1oc2ccc(Br)cc2c(=S)n1-c1ccc(Cl)cc1	My 235/80	-	14 d	MIC	4 µM
NNC(=O)c1ccncc1	235/80	-	14 d	MIC	>250 µM
O=C(NNC(=O)c1ccncc1)Nc1ccc(C(F)(F)F)cc1	My 6509/96	broth dilution	21 d	MIC100	125 µM
O=C(Oc1ccc(Cl)cc1C(=O)Nc1ccc(Cl)c(Cl)c1)c1cnccn1	6509/96	-	14 d	MIC	2 µM
CCCCCCCNC(=O)NNC(=O)c1ccncc1	My 235/80	broth dilution	21 d	MIC100	125 µM
O=C(Oc1cc(Cl)ccc1C(=O)Nc1cccc(Br)c1)c1cnccn1	235/80	-	21 d	MIC	4 µM
O=C(Nc1cccc(F)c1)c1cc(Cl)ccc1OS(=O)(=O)c1ccccc1	235/80	-	21 d	MIC	32 µM
O=C(Oc1cc(Cl)ccc1C(=O)Nc1ccc(Cl)c(Cl)c1)c1cnccn1	235/80	-	14 d	MIC	4 µM
COc1ccc2oc(=S)n(-c3cccc(Cl)c3)c(=S)c2c1	6509/96	-	14 d	MIC	8 µM
O=C(Oc1ccc(Cl)cc1C(=O)Nc1ccc(C(F)(F)F)cc1)c1cnccn1	235/80	-	21 d	MIC	2 µM
O=C(Nc1ccc(Cl)cc1)c1cc(Cl)ccc1OS(=O)(=O)c1ccccc1	6509/96	-	14 d	MIC	8 µM